Compound potency records, mixed from different reports. Data source: NIAID ChemDB in PubChem.

All rows: whole-cell or culture tests; species: HIV-1

An empty or dashed field is not shown. ECn: concentration that inhibits the pathogen or its effect by n%. Conditions beyond the fields shown may differ between rows.

SMILES,measure,mutations,conditions,strain,read by,cells,value
Nc1ccn(C/C=C\COCP(=O)(O)O)c(=O)n1,EC50,,,,,PBL,>100 µM
COc1cc(C[C@H]2C(=O)OC[C@@H]2Cc2ccc(OC)c(OC)c2)ccc1O,EC50,,,IIIB,RT activity,H9,<0.05 µM
NC(=O)[C@@H](N)CO,EC50,,,IIIB,,CEM,1000 µM
O=C(c1ccccc1)c1ccc2c(c1)oc(=O)n2Cc1ccccc1,EC50,,,IIIB,syncytia,CEM,>40 µg/mL
CC(C)COC(=O)[C@@H](C)NP(=O)(CO[C@H](C)Cn1cnc2c(N)ncnc21)NC[C@H](C)C(=O)OC(C)C,EC50,,10% human serum,,fluorescence,MT4-GFP,15.7 µM
Cc1cn([C@H]2C[C@H](N=[N+]=[N-])[C@@H](COP(=O)(O)OCCO[C@H]3O[C@H](CO)[C@@H](O)[C@H](O)[C@@H]3O)O2)c(=O)[nH]c1=O,EC50,,15 d,LAV-Bru,RT activity,CEM,<0.2 µM
CCCCCOC(=O)[C@@H](C)NP(=O)(CO[C@H](C)Cn1cnc2c(N)ncnc21)NC[C@H](C)C(=O)OC(C)C,EC50,,10% human serum,,fluorescence,MT4-GFP,7.3 µM
CNC(=O)c1c(O)c2ncc(Cc3ccc(F)cc3)c3c2n(c1=O)C[C@@](C)(C(=O)NCCO)O3,EC50,,,IIIB,ATP / luminescence,MT-2,0.0305 µM
CCCCCOC(=O)[C@H](C)NP(=O)(CO[C@H](C)Cn1cnc2c(N)ncnc21)NC[C@H](C)C(=O)OC(C)C,EC50,,50% human serum,,fluorescence,MT4-GFP,18.6 µM
COC(=O)c1cccc2c(C(=O)C(=O)N3CCN(C(=O)c4ccccc4)CC3C(C)(C)C)c[nH]c12,EC50,,,,luciferase,HeLa + HELA CD4+/CCR5,<10 µM
Nc1nc(NC2CC2)c2ncn([C@H]3C=C[C@@H](CO)C3)c2n1,EC50,M41L/K67N/K70R/Y181C/G190A/L210W/T215Y/K219E,,Clinical isolate,recombinant virus assay,MT-2,0.4928 µM
NC(=O)C(N)Cc1c[nH]c2ccccc12,EC50,,,IIIB,,CEM,500 µM
CC(C)c1c(Cc2ccccc2)nc(SCC(=O)c2ccco2)[nH]c1=O,EC50,,,IIIB,syncytia,C8166,0.095 µM
COCCNC(=O)[C@@H](NC(=O)[C@H](Cc1ccc(OC)cc1OC)C[C@H](O)[C@H](Cc1ccccc1)NC(=O)OC(C)(C)C)C(C)C,EC50,,,MN,RT activity,MT-2,<0.1 µM
Cc1sccc1C(=O)Nc1ccc(Cl)c(OCC=C(Cl)Cl)c1,EC50,RT-K103N,,TIBO R82913-resistant (RT K103N),syncytia,CEM,2 µg/mL
O=C(C(=O)N1CCN(C(=O)c2ccccc2)CC1)c1c[nH]c2cc(C(F)(F)F)ccc12,EC50,,,,luciferase,HeLa + HELA CD4+/CCR5,>10 µM
CCCCCCCCCCCCCCCCOP(=O)(OCCO[C@@H]1O[C@H](CO)[C@@H](O)[C@H](O)[C@@H]1O)OC[C@H]1O[C@@H](n2cc(C)c(=O)[nH]c2=O)C[C@@H]1N=[N+]=[N-],EC50,,15 d,LAV-Bru,RT activity,CEM,<0.2 µM
O=C(CCCCCCCCCCC(=O)Nc1cc(S(=O)(=O)O)cc2cc(S(=O)(=O)O)cc(O)c12)Nc1cc(S(=O)(=O)O)cc2cc(S(=O)(=O)O)cc(O)c12,EC50,,,,p24,H9,>2 µg/mL
O=C(O[C@@H]1Cc2c(O)cc(O)cc2O[C@@H]1c1cc(O)c(O)c(O)c1-c1c([C@H]2Oc3cc(O)cc(O)c3C[C@H]2OC(=O)c2cc(O)c(O)c(O)c2)cc(O)c(O)c1O)c1cc(O)c(O)c(O)c1,EC50,,,IIIB,p24,MT-2,1.51 µM
CC(=O)N1CCC(C(=O)N(CCCN2CCC(Cc3ccc(C(N)=O)cc3)CC2)c2ccc(C)c(Cl)c2)CC1,EC50,,,R5-06 Clinical isolate,p24,PBMC,0.01347 µM
Cc1c(Cc2ccccc2)nc(SCC(=O)c2ccccc2)[nH]c1=O,EC50,,,IIIB,syncytia,C8166,0.8 µM
Nc1ncnc2c1ncn2C/C=C\CO,EC50,,,,,PBL,>100 µM
COc1ccc(C[C@H](C[C@H](O)[C@H](Cc2ccccc2)NC(=O)OC(C)(C)C)C(=O)N[C@H](C(=O)N[C@@H](Cc2ccccc2)C(=O)N2CCOCC2)C(C)C)c(OC)c1,EC50,,,MN,RT activity,MT-2,<0.03 µM
O=C(O)[C@@H]1CCCN1,EC50,,,IIIB,,CEM,500 µM
CCCCCOC(=O)C(C)(C)N[P@](=O)(CO[C@H](C)Cn1cnc2c(N)ncnc21)N[C@@H](CC(=O)OC(C)C)C(C)C,EC50,,10% human serum,,fluorescence,MT4-GFP,0.8 µM
Cc1cc(C#N)cc(C)c1Oc1nc(Nc2ccc(C#N)cc2)nc(N)c1Br,EC50,NL/103,,,,TZM-bl,0.0084 µM
CCCCC(=O)c1ccc2c(c1)sc(=O)n2Cc1ccccc1,EC50,,,IIIB,syncytia,CEM,>8 µg/mL
CNC(=O)c1c(O)c2ncc(Cc3ccc(F)cc3)c3c2n(c1=O)CC(O)(CO)CO3,EC50,,,IIIB,ATP / luminescence,MT-2,0.004 µM
COc1cc2c(cc1OCCC(=O)Nc1cc(C(=O)Nc3cc(C(=O)NCCC(=N)N)n(C)c3)n(C)c1)N=C[C@@H]1CCCN1C2=O,EC50,,,,PCR,Jurkat cells,3 µM
COc1cc(C[C@H](C[C@H](O)[C@H](Cc2ccccc2)NC(=O)OC(C)(C)C)C(=O)N[C@H](C(=O)N[C@@H](Cc2ccccc2)C(=O)N2CCOCC2)C(C)C)cc(OC)c1OC,EC50,,,MN,RT activity,MT-2,<1 µM
CC(=O)c1ccc(C)cc1NC(C(N)=O)c1c(Cl)cccc1Cl,EC50,,,HE,cytopathic effect / MTT,MT-4,0.03 µM
O=C(c1cccc(Cl)c1)c1ccc2[nH]c(=O)sc2c1,EC50,,,IIIB,syncytia,CEM,>1.6 µg/mL
Nc1nc2c(ncn2[C@H]2CC[C@@H](CO)O2)c(=O)[nH]1,EC50,,,LAI,p24,PBL(PHA STIM.) + PBL,<2.5 µM
COc1ccc(NC(=O)C2=C(C)OCCS2)cc1OCC=C(Cl)Cl,EC50,,,IIIB,syncytia,CEM,4 µg/mL
COc1ccc(C[C@H](C[C@H](O)[C@H](Cc2ccccc2)NC(=O)OC(C)(C)C)C(=O)N[C@H](C(=O)N[C@@H](Cc2ccccc2)C(=O)N2CCOCC2)C(C)C)cc1,EC50,,,MN,RT activity,MT-2,<0.03 µM
Cc1occc1C(=S)Nc1ccc(Cl)c(SCC=C(Cl)Cl)c1,EC50,RT-L100I,,TIBO R82150-resistant (RT L100I),syncytia,CEM,0.023 µg/mL
Cn1c2ccccc2c(=O)c2c(O)cccc21,EC50,,,IIIB,p24 / ELISA,PBMC,1.4 µg/mL
CCOCn1c2c(c(=O)[nH]c1=O)CCCc1ccccc1-2,EC50,,,IIIB,,C8166,>5 µM
CCO[C@@H]1Cc2cc(C(F)(F)F)ccc2C1N1CCN(C2(C)CCN(C(=O)c3c(C)ncnc3C)CC2)C[C@@H]1C,EC50,,,WPS-5,p24,PBMC,>1 µM
Nc1nc2c(ncn2[C@@H]2C=C[C@H](CO)C2)c(=O)[nH]1,EC50,,,IIIB,RT activity,H9,>60 µM
Nc1nc(Cl)c2ncn([C@@H]3O[C@H](CO)C[C@@H]3F)c2n1,EC50,,,LAI,cytopathic effect / XTT,ATH-8 + ATH8,<50 µM
COc1ccc(C[C@H](C[C@H](O)[C@H](Cc2ccccc2)NC(=O)OC(C)(C)C)C(=O)N[C@H](C(=O)N[C@@H](Cc2ccccc2)C(=O)N2CCOCC2)C(C)C)cc1OC,EC50,,,MN,RT activity,MT-2,<0.1 µM
O=C(O[C@H]1Cc2c(O)cc(O)cc2O[C@@H]1c1cc(O)c(O)c(O)c1)c1cc(O)c(O)c(O)c1,EC50,,,IIIB,p24,MT-2,4.61 µM
COc1ccc2c(C(=O)C(=O)N3CCN(C(=O)c4ccccc4)CC3)c[nH]c2c1,EC50,,,BRU,RT activity,MT-2,<10 µM
NCC(O)CN,EC50,,,IIIB,,CEM,1000 µM
C[C@@H]1CN(C(=O)c2ccccn2)CCN1C(=O)C(=O)c1c[nH]c2cccc(Br)c12,EC50,,,,luciferase,HeLa + HELA CD4+/CCR5,~10 µM
O=C(Oc1cc(O)cc2c1C[C@@H](OC(=O)c1cc(O)c(O)c(O)c1)[C@@H](c1cc(O)c(O)c(O)c1)O2)c1cc(O)c(O)c(O)c1,EC50,,,IIIB,p24,MT-2,2.63 µM
Cc1ccc(F)c2c(C(=O)C(=O)N3CCN(C(=O)c4ccccn4)C[C@H]3C)c[nH]c12,EC50,,,,luciferase,HeLa + HELA CD4+/CCR5,<10 µM
COc1ccc(CCSc2nc(Cc3cccc4ccccc34)c(C(C)C)c(=O)[nH]2)cc1,EC50,,,IIIB,syncytia,C8166,20.9 µM
O=C1Nc2ccc(F)cc2C(C#Cc2cccs2)(C(F)(F)F)O1,EC50,,,,,,<0.00293 µM
CNC(=O)c1nc([C@]2(C)CSC([C@]3(C)CSC([C@]4(C)CSC(/C=C/c5ccccc5)=N4)=N3)=N2)oc1C,EC50,,,IIIB,cytopathic effect / thymidine uptake,MT-4,<0.000047 µM
CCCCCCCOC(=O)[C@@H](C)NP(=O)(CO[C@H](C)Cn1cnc2c(N)ncnc21)NC[C@H](C)C(=O)OC(C)C,EC50,,10% human serum,,fluorescence,MT4-GFP,2.2 µM
O=C(C(=O)N1CCN(C(=O)c2ccc(Cl)o2)CC1)c1c[nH]c2cccc(F)c12,EC50,,,,luciferase,HeLa + HELA CD4+/CCR5,<10 µM
CCc1c(-c2coc(CC/C(C)=C/c3ccccc3)n2)oc(OC)c(C)c1=O,EC50,,,IIIB,,MT-4,0.0066 µM
Cc1cn([C@@H]2CC[C@H](COC(=O)CCCCCCCCCCCCC(=O)OC[C@H]3O[C@@H](n4cc(C)c(=O)[nH]c4=O)C[C@@H]3N=[N+]=[N-])O2)c(=O)[nH]c1=O,EC50,,,IIIB,,CEM,0.003 µM
N#CCCNC(=O)c1c(O)c2ncc(Cc3ccc(F)cc3)c3c2n(c1=O)CC(CO)(CO)CO3,EC50,,,IIIB,ATP / luminescence,MT-2,0.011 µM
O=C1Nc2ccc(Cl)cc2C(C#Cc2ccoc2)(C(F)(F)F)O1,EC90,RT-K103N,,,,,0.1522 µM
CC(C)c1c(Cc2cccc3ccccc23)nc(SCCc2ccccc2)[nH]c1=O,EC50,,,IIIB,syncytia,C8166,7.11 µM
CCCCOC1(C(F)(F)F)OC(=O)Nc2ccc(Cl)cc21,EC50,,,,,,<0.01019 µM
O=C(C(=O)N1CCN(C(=O)c2ccc(F)c(Cl)c2)CC1)c1c[nH]c2ccccc12,EC50,,,BRU,RT activity,MT-2,~10 µM
CCCCCCCCCCCCCCCCOP(=O)(OC[C@H]1OC(O)[C@@H](O)[C@@H](O)[C@@H]1O)OC[C@H]1O[C@@H](n2cc(C)c(=O)[nH]c2=O)C[C@@H]1N=[N+]=[N-],EC50,,22 d,LAV-Bru,RT activity,CEM,>1 µM
CC(C)OC(=O)[C@H](C)CNP(=O)(CO[C@H](C)Cn1cnc2c(N)ncnc21)N[C@H](C)C(=O)OC(C)C,EC50,,50% human serum,,fluorescence,MT4-GFP,908 µM
C/C=C/CSc1cc(NC(=S)c2ccsc2C)ccc1Cl,EC50,RT-V108I,,NL4-3,p24,CEM + CEM-SS,0.2 µM
CCc1cn([C@@H]2C[C@H](F)[C@@H](CO)O2)c(=O)[nH]c1=O,EC50,,,IIIB,antigen,H9,0.1 µM
Cn1c2ccccc2c(=O)c2c(O)ccc(O)c21,EC50,,,IIIB,p24 / ELISA,OM-10.1,>0.36 µg/mL
Nc1ncnc2c1ncn2C/C=C\COCP(=O)(O)O,EC50,,,,,MT-4,9 µM
CC1=C(C(=O)Nc2ccc(Cl)c(OCC=C(Cl)Cl)c2)SCCO1,EC50,,,IIIB,syncytia,CEM,1.2 µg/mL
COc1cc2c(cc1OCCC(=O)Nc1cc(C(=O)NCCC(=N)N)n(C)c1)N=C[C@@H]1CCCN1C2=O,EC50,,,,PCR,Jurkat cells,>200 µM
CCc1cn([C@@H]2C[C@H](O)[C@@H](CO)O2)c(=O)[nH]c1=O,EC50,,,IIIB,antigen,H9,10 µM
O=C1Nc2ccc(Cl)cc2C(C#Cc2cccnc2)(C(F)(F)F)O1,EC50,,,,,,<0.00367 µM
CNC(=O)c1c(O)c2ncc(Cc3ccc(F)cc3)c3c2n(c1=O)C[C@](C)(C(=O)NCC1(C#N)CC1)O3,EC50,,,IIIB,ATP / luminescence,MT-2,0.014 µM
O=S(=O)(c1cccc2cnccc12)N1CCNCC1,EC50,,,IIIB,cytopathic effect / MTT,CEM,>10.2 µg/mL
C[C@H](Cn1cnc2c(N)ncnc21)OCP(=O)(O)O,EC50,K65R M184V,,Clinical isolate,recombinant virus assay,MT-2,0.006 µM
Oc1cc(/C=C/c2cc(O)c(O)c(O)c2)cc(O)c1O,EC50,,,NL4-3,MTT,MT-4,0.74 µM
CCCc1cn([C@@H]2C[C@H](F)[C@@H](CO)O2)c(=O)[nH]c1=O,EC50,,,IIIB,antigen,H9,2.5 µM
COCCNC(=O)[C@@H](NC(=O)[C@H](Cc1ccc(O)cc1)C[C@H](O)[C@H](Cc1ccccc1)NC(=O)OC(C)(C)C)C(C)C,EC50,,,MN,RT activity,MT-2,<0.3 µM
C/C=C/COC1(C(F)(F)F)OC(=O)Nc2ccc(Cl)cc21,EC50,RT-K103N,,,,,<0.404 µM
Cc1occc1C(=S)Nc1ccc(Cl)c(/C=N/OC2CCCC2)c1,EC50,,,IIIB,syncytia,CEM,0.25 µM
Cn1c(=O)sc2cc(C(=O)c3ccc(Cl)c([N+](=O)[O-])c3)ccc21,EC50,,,IIIB,syncytia,CEM,4.6 µg/mL
Nc1ncnc2c1ncn2[C@@H]1C=C[C@H](OCP(=O)(O)O)O1,EC50,RT-M184V,,,cytopathic effect,MT-2,82.6 µM
CCc1c(Cc2ccccc2)nc(SCC(=O)c2cccs2)[nH]c1=O,EC50,,,IIIB,syncytia,C8166,5.39 µM
O=c1[nH]c2ccc(Cc3ccc(F)cc3)cc2o1,EC50,,,IIIB,syncytia,CEM,>8 µg/mL